Assay results: paper PMC4703992, “Crystal structures of Mycobacterium tuberculosis HspAT and ArAT reveal structural basis of their distinct substrate specificities” (Scientific Reports, 2016)

Tests used:
Test in all cases: purified protein
Details in all cases: pH 8.4; 37.0 °C
[1] = test system: N[C@@H](Cc1ccc(O)cc1)C(=O)O
[2] = test system: N[C@@H](Cc1c[nH]c2ccccc12)C(=O)O
N[C@@H](Cc1ccccc1)C(=O)O = test system: N[C@@H](Cc1ccccc1)C(=O)O

## mHspAT (Mycobacterium tuberculosis H37Rv)
[1]
  Km: 9.76 ± 0.69 mM
  kcat/Km: 320000 M⁻¹ s⁻¹

## mArAT (Mycobacterium tuberculosis H37Rv)
[2]
  Km: 6.26 ± 0.43 mM
  kcat/Km: 154000 M⁻¹ s⁻¹
N[C@@H](Cc1ccccc1)C(=O)O
  Km: 0.036 ± 0.001 mM
  kcat/Km: 9.7e+06 M⁻¹ s⁻¹
